# Measured values published in patent publication US9637724B2, “Selective binding of biological targets to solid phase ureides” (AGENCY FOR SCIENCE, TECHNOLOGY AND RESEARCH, priority 2012, dated 2017).
# Tests used:
# [1] = Allantoin plus ethacridine treatment of IgG supernatant, Chelex 100 / Macroprep High Q, then protein A
# Bacteriophage M13 = assay: Co-precipitation of bacteriophage M13 from phage cell culture supernatant with allantoin
# Description: Phage cell culture supernatant was co-precipitated by addition of allantoin at a weight to volume ratio of 7%. pH was about 7.0. Conductivity was 20 mS. The virus was recovered by dissolving the allantoin in 50 mM Hepes, 150 mM NaCl, pH 7.0. Phage recovery was about 70%. Greater than 99% of proteins and small molecule contaminants were eliminated with the supernatant.
# Example 1 was repeated at pH values of 5.0, 6.0, and 8.0% allantoin.
# Example 1 was repeated at NaCl concentrations corresponding to conductivity values of 40, 60, 80, and 100 mS/cm. These salt concentrations correspond with about 400, 600, 800, and 1000 mM NaCl. […] Optimal co-precipitation occurred at 400 mM NaCl. This was interpreted to reflect suppression of mutual electrostatic repulsion among viral particles with the result of supporting higher packing density of the particles on the ureide surface.
# Example 1 was repeated with 3%, 5%, and 10% allantoin. Co-precipitation efficiency, as judged by removal from supernatant, was directly correlated with allantoin concentration. Recovery increased from about 31% to 57% to 91% respectively.
# Phage cell culture supernatant was precipitated with 7% allantoin at 400 mM NaCl, pH 6.0. The majority of proteins and small molecule contaminants were eliminated with the supernatant. Recovery was estimated to be in excess of 90%. The virus was recovered by dissolving the allantoin in 50 mM Hepes, pH 7.0, then concentrated by ultrafiltration. Purity from the combined process were estimated by analytical anion exchange chromatography to be in excess of 90%; recovery about 80%.
# Phage M13 cell culture supernatant was co-precipitated by addition of allantoin at a weight to volume ratio of 5%. pH was about 7.0. Conductivity was about 15 mS. About 60% of the virus was eliminated in the precipitate. The majority of proteins remained in the supernatant.
# [2] = 1% allantoin, 0.02% ethacridine, Chelex 100 / Macroprep High Q
compound,measurement,setting,value
NC(=O)NC1NC(=O)NC1=O (centres unmarked) [allantoin],Dynamic binding capacity of protein A column loaded with treated sample,[1]; [2],35 mg/mL
same,host cell protein contaminants in IgG eluted from protein A,[1]; [2],10 ppm
same,"host cell protein contaminants, times lower than untreated",[1]; treated versus untreated cell culture supernatant,roughly 80 times
same,Dynamic capacity higher than column loaded with untreated sample,[1]; treated versus untreated sample,about 20%
same,NaCl concentration of optimal co-precipitation,Bacteriophage M13; 7% allantoin,400 mM
same,Purity from the combined process by analytical anion exchange chromatography,"Bacteriophage M13; 7% allantoin, 400 mM NaCl, pH 6.0, dissolution and ultrafiltration",> 90%
same,"Precipitation efficiency as judged by removal of virus from the sample, dependence on conductivity","Bacteriophage M13; 20, 40, 60, 80, 100 mS/cm",directly correlated with conductivity
same,"Co-precipitation efficiency as judged by removal from the supernatant, dependence on pH","Bacteriophage M13; pH 5.0, 6.0, 7.0, 8.0",inversely correlated with pH
